A mixed list of measured activities; the numbers were collected in NIAID ChemDB.

Shared fields: tests in culture; species: HIV-1; endpoint: inhibition

An empty or dashed field is not shown.

SMILES	strain or isolate	changes	cell line	method	conditions	dose	result
CCOc1ccc2nc(NC(=O)NCCc3ccccc3)sc2c1			MT-4	cytopathic effect / XTT		10 µg/mL	5%
CC(C)(C)OC(=O)Nc1cccc(C(=O)N2CCN(C(=O)C(=O)c3c[nH]c4cccc(Cl)c34)CC2)c1			HeLa + HELA CD4+/CCR5	luciferase		10 µM	97%
S=C(NCCc1ccccc1)N1CCCc2ccccc21			MT-4	cytopathic effect / XTT		0.1 µg/mL	25%
Cc1ccc(C)c(NS(=O)(=O)c2cc(C(=O)NCc3ccccn3)ccc2Cl)c1	Clinical isolate	Nevirapine resistant	C8166	p24		5 µM	90%
COc1cccc2c(C(=O)C(=O)N3CCN(C(=O)c4ccccc4)CC3)c[nH]c12			HeLa + HELA CD4+/CCR5	luciferase		10 µM	>98%
NCCSSCCN	IIIB		PBL	p24		50 µM	47%
S=C(NCCc1ccccc1)N1CCOCC1			MT-4	cytopathic effect / XTT		10 µg/mL	9%
CC(C)[C@H](NC(=O)[C@H](CO)NC(=O)[C@@H](N)CSSCC(=O)O)C(=O)N[C@H](C(=O)N[C@@H](CSSCC(=O)O)C(=O)NCC(=O)O)[C@@H](C)O	p13		PBMC(PHA STIM.) + PBMC	p24		1.8 µM	80%
C=C(C)[C@@H]1CC[C@]2(C(=O)NCCCCCCCC(=O)N[C@@H](CC(C)C)[C@@H](O)CC(=O)O)CC[C@]3(C)[C@H](CC[C@@H]4[C@@]5(C)CC[C@H](O)C(C)(C)[C@@H]5CC[C@]43C)[C@@H]12	LAI	GP41-K90R	HeLa P4 + HeLa	syncytia		10 µM	>99%
O=C(NCCc1ccccc1)Nc1ccccn1			MT-4	cytopathic effect / XTT		100 µg/mL	6%
CCOC(=O)C1CN(C(=O)c2ccccc2)CCN1C(=O)C(=O)c1c[nH]c2c(C(=O)OC)cccc12			HeLa + HELA CD4+/CCR5	luciferase		10 µM	86%
CC(C)[C@H](NC(=O)[C@H](CO)NC(=O)[C@@H](N)CS)C(=O)N[C@H](C(=O)N[C@@H](CS)C(=O)NCC(=O)O)[C@@H](C)O	IIIB		PBMC(PHA STIM.) + PBMC	p24		1.32 µM	74%
Cc1cccc2c(C(=O)C(=O)N3CCN(C(=O)c4ccccn4)C[C@H]3C)c[nH]c12			HeLa + HELA CD4+/CCR5	luciferase		10 µM	>98%
CC1(C)[C@@H](O[C@H]2O[C@H](C(=O)O)[C@@H](O)[C@H](O)[C@H]2O[C@@H]2O[C@H](C(=O)O)[C@@H](O)[C@H](O)[C@H]2O)CC[C@]2(C)[C@H]3C(=O)C=C4[C@@H]5C[C@@](C)(C(=O)O)CC[C@]5(C)CC[C@@]4(C)[C@]3(C)CC[C@@H]12	IIIB		MOLT-4	cytopathic effect	9 d	1200 µM	74.6%
O=C(C(=O)N1CCN(C(=O)c2ccc(Cl)o2)CC1)c1c[nH]c2cccc(F)c12			HeLa + HELA CD4+/CCR5	luciferase		10 µM	>98%
CC1/C=C/C=C/C=C/C=C/C=C/C=C/C=C/C(OC2OC(C)C(O)C(N)C2O)CC(O)C(C(=O)O)C(O)CC(=O)CC(O)CC(O)CC(O)CC(=O)CCCC(=O)CC(=O)OC1	IIIB		H9	p24 / antigen		0.01 µg/mL	0%
Cc1ccnc(NC(=O)NCCc2ccccc2)n1			MT-4	cytopathic effect / XTT		1 µg/mL	42%
CCCCCCCCCCCCCCCCOP(=O)(OC[C@H]1OC(O)[C@@H](O)[C@@H](O)[C@@H]1O)OC[C@H]1O[C@@H](n2cc(C)c(=O)[nH]c2=O)C[C@@H]1N=[N+]=[N-]	LAV-Bru		CEM	RT activity	15 d	1 µM	97%
O=C(NCCc1ccccc1)Nc1nc(C(F)(F)F)cs1			MT-4	cytopathic effect / XTT		1 µg/mL	75–100%
COc1ccc(C(=O)N2CCN(C(=O)C(=O)c3c[nH]c4cccc(F)c34)CC2)c(S)c1			HeLa + HELA CD4+/CCR5	luciferase		10 µM	81%
N#Cc1csc(NC(=O)NCCc2ccccc2)n1			MT-4	RT activity		10 µg/mL	98%
CN1C(=O)N(C)C(=O)C2(C1=O)[C@@H](c1ccco1)CC(=O)C[C@H]2[C@H]1COC(C)(C)O1	NL4-3		SupT1	MTT		0.0001 µM	>30%
CCCCCCCCCCCCCCCCOP(=O)(OCCO[C@@H]1O[C@H](CO)[C@@H](O)[C@H](O)[C@@H]1O)OC[C@H]1O[C@@H](n2cc(C)c(=O)[nH]c2=O)C[C@@H]1N=[N+]=[N-]	LAV-Bru		U-937	RT activity	7 d	0.2 µM	0%
N=C1Sc2ccccc2C2=NCCCN12	Jv1083		TZM-bl	β-galactosidase		3.8 µM	90%
O=C1[C@@H](Cc2ccccc2)NC(=S)N1Cc1ccccc1			MT-4	RT activity		10 µg/mL	9%
CC1CN(C(=O)c2ccccc2)C(C)CN1C(=O)C(=O)c1c[nH]c2cccc(F)c12			HeLa + HELA CD4+/CCR5	luciferase		10 µM	94%
Cc1cn([C@H]2C[C@H](N=[N+]=[N-])[C@@H](COP(=O)(O)OCCO[C@H]3O[C@H](CO)[C@@H](O)[C@H](O)[C@@H]3O)O2)c(=O)[nH]c1=O	LAV-Bru		U-937	RT activity	14 d	5 µM	0%
O=C(C(=O)N1CCN(C(=O)c2c(S)cccc2Cl)CC1)c1c[nH]c2cccc(F)c12			HeLa + HELA CD4+/CCR5	luciferase		10 µM	>98%
C[C@H]1[C@H](O)[C@@H](C)/C=C/C=C/C=C/C=C/C=C/C=C/C=C/[C@H](O[C@@H]2O[C@H](C)[C@@H](O)[C@H](N)[C@@H]2O)C[C@@H]2O[C@](O)(C[C@@H](O)C[C@@H](O)CC[C@H](O)[C@@H](O)C[C@@H](O)CC(=O)O[C@H]1C)C[C@H](O)[C@H]2C(=O)O	G3 CLADE G R5 (NSI)		PBMC	p24 / RT activity		1.5 µM	90%
Cc1ccc(-c2ccc3c(c2)C=C(C(=O)Nc2ccc(C[N+](C)(C)C4CCOCC4)cc2)CCC3)cc1	PCP1 CLADE C		PBMC	p24		5 µM	94.4%
COc1c(Cl)cc(S)cc1C(=O)N1CCN(C(=O)C(=O)c2c[nH]c3cccc(F)c23)CC1			HeLa + HELA CD4+/CCR5	luciferase		10 µM	>98%

The first 4 rows once more:

CCOc1ccc2nc(NC(=O)NCCc3ccccc3)sc2c1 ; cell line: MT-4 ; method: cytopathic effect / XTT ; dose: 10 µg/mL ; result: 5%
CC(C)(C)OC(=O)Nc1cccc(C(=O)N2CCN(C(=O)C(=O)c3c[nH]c4cccc(Cl)c34)CC2)c1 ; cell line: HeLa + HELA CD4+/CCR5 ; method: luciferase ; dose: 10 µM ; result: 97%
S=C(NCCc1ccccc1)N1CCCc2ccccc21 ; cell line: MT-4 ; method: cytopathic effect / XTT ; dose: 0.1 µg/mL ; result: 25%
Cc1ccc(C)c(NS(=O)(=O)c2cc(C(=O)NCc3ccccn3)ccc2Cl)c1 ; strain or isolate: Clinical isolate ; changes: Nevirapine resistant ; cell line: C8166 ; method: p24 ; dose: 5 µM ; result: 90%

a–b is a range or a potency band. Inhibition is in % at the dose shown (toxicity tests: loss of growth or viability). Conditions beyond the fields shown may differ between rows.